## Percent effect of library compounds

The filed quantity is “Percent Effect” (%).
The record does not define 0% and 100%; most values in the screen are far below 50% and negative numbers occur (in some assays of this library far below -100).
This is part of a subset picked to be rich in strong results.
A dash means the value is not listed here; it may have been measured.

Mtb glucose medium: 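Growth of Mycobacterium tuberculosis over 3 days (7H9 medium with glucose and tyloxapol); the read-out is not stated. Tested at 500 µM. Direction is inferred from retests: higher values go with more growth inhibition. Size under these conditions: about 18,000 compounds, about 1,400 of them at 50% or above in at least one test.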
Mtb cholesterol medium: 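Growth of Mycobacterium tuberculosis over 4 days (cholesterol / DPPC medium with tyloxapol); the read-out is not stated. Concentration: 500 µM. The record gives no direction; compounds that gave an IC50 in retests scored well above the rest, so higher reads as more growth inhibition. Of about 18,000 compounds tested this way, about 900 (5%) reached 50% or more in at least one test.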

structure,Mtb glucose medium,Mtb cholesterol medium
Cc1cccc2c1OCCC2N (stereo not drawn),4.061%,8.446%
COCCn1cncc1CNC(=O)c1ccc(C)s1,-,-2.404%
CC(C)CC1CCN(S(N)(=O)=O)C1 (stereo not drawn),51.74%,47.06%
Cc1cc(-n2cccn2)ccc1CO,1.792%,-
Cc1cccc(N(CCC(N)=O)C(=O)C2CCC2)c1,34.59%,-
N#Cc1cnn(-c2ccccc2)n1,-3.929%,-
O=C(N1CCCCC1)N1CCCC(c2nnc[nH]2)C1 (stereo not drawn),21.39%,-
OCCc1ccoc1,4.184%,-
O=C1CCN(C(=O)CCCSc2ccccc2)CCN1,-,12.94%
CCOc1cc(NCc2ccccc2CO)ncn1,-1.912%,-
COc1ccnc(N2CCC(c3nncn3C)CC2)n1,18.86%,-
CCCNc1nnc(SCC(C)(C)O)s1,69.66%,75.39%
COCc1ccccc1CNC(=O)c1nc(C)ns1,72.27%,59.68%
CSc1ccc(CC(=O)NCCN2CCCC2=O)cc1,-,8.76%
CC(C)(C)OC(=O)N1CCN(C(N)=O)CC1,0.8513%,-
CC(C)NC(=O)NCC12CCCC=C1NC(=O)CC2 (stereo not drawn),-7.496%,-
CN(C)C(=O)N1CCN(c2ncccc2C#N)CC1,34.6%,-
CN(C)c1cc(CNC(=O)c2ccncc2)ccn1,22.68%,-
CC(C)(O)COc1ccc(S(C)(=O)=O)cc1,10.12%,-
Cc1nnc(CN2C[C@H](C3CC3)[C@@H](N)C2)s1,7.436%,-
CN(C(=O)CSc1cnn[nH]1)c1ccccc1,26.51%,-
CNC(=O)CN1CCNCC1,-,-14.37%
O=C(COC(=O)c1cccs1)NCc1ccco1,74.42%,100.8%
COC[C@@H](O)CNC(=O)NC(C)Cc1cccc(Br)c1 (stereo partly drawn),-,10.37%
Cc1ccc(C(=O)NCC2(C)CCOCC2)cn1,30.3%,-
CC(C)c1cc(C(F)(F)CN)[nH]n1,25.09%,-
CCCC(N)C(=O)Nc1nccs1 (stereo not drawn),-19.53%,-
CC1CCC(NC(=O)c2ccc(S(N)(=O)=O)cc2)CC1 (stereo not drawn),-2.101%,-
CC(C(=O)Nc1ccc(Br)cc1)n1cnnn1 (stereo not drawn),72.61%,78.13%
NC(=O)CCC(=O)c1ccc2c(c1)OCCO2,34.72%,14.9%
CN(CCc1ccncc1)C(=O)CCNS(C)(=O)=O,-,-5.974%
CC(O)c1ncc[nH]1 (stereo not drawn),4.097%,-
Nc1nnc(SCCN2CCCCC2)[nH]1,8.215%,-
COCC(C)Nc1cccc(CS(C)(=O)=O)c1 (stereo not drawn),-,0.4683%
COc1ccc(OCCCN2CCNC(=O)CC2)cc1,17.41%,10.98%
CC(=O)N1CCCN(S(=O)(=O)c2ncn(C)c2Cl)CC1,9.129%,-
CCCN1CCC(NC(=O)c2ccc(O)cn2)C1 (stereo not drawn),11.73%,-
CCn1cc(Br)cc1C(=O)N1CCN(CC(C)O)CC1 (stereo not drawn),13.7%,-
CCOc1ncccc1C(=O)NCC(C)N1CCCC1 (stereo not drawn),18.91%,-
CSc1ccc(C(=O)NCCCc2ncc[nH]2)cc1,2.921%,-
CCc1ccccc1CN,8.55%,-
O=C1CNCCN1CCc1ccccc1,-,18.49%
CN(Cc1ccsc1)C(=O)CNC(=O)c1ccc(Br)o1,81.2%,72.22%
O=C(NCCCn1ncc2ccccc21)C1CC1,67.65%,60.62%
CCc1[nH]c(C(C)(N)CC)nc(=O)c1C (stereo not drawn),-,6.136%
CN(CC1CC1)c1ccc(S(C)(=O)=O)cc1S(C)(=O)=O,-,-10.06%
Nc1ccc(CN2CCOCC2)cn1,-,-18.17%
CN1CCOC(CNC(=O)c2ccc(N)nc2)C1 (stereo not drawn),-,26.5%
CS(=O)(=O)NCCSCC(O)c1ccccc1 (stereo not drawn),17.27%,-
COC(=O)c1ccc(C(=O)Nc2ncccc2O)s1,40.51%,-
NCc1cccc(N2CCCC2=O)c1,6.644%,-
N[C@H]1C[C@@H](c2cc(NCCCN3CCCC3)ncn2)C1,-2.536%,-
O=C(CN1CCn2ccnc2C1)Nc1ccc(Br)cn1,-,-2.006%
Cc1cc(C(=O)NCCC(=O)N2CCCC2)c(C)o1,3.281%,-
Cc1ccc(CC(C)N(C)C(=O)CCCN)cc1 (stereo not drawn),-,-15.11%
Cc1cccc(C)c1CN(C)S(C)(=O)=O,14.98%,-
COc1nc(N)n[nH]1,-10.24%,-
COC(=O)c1ccc(Cl)c(CN(C)CC(N)=O)c1,20.9%,-
CNC(=O)NCc1cccnc1OC1CCCC1,-,-28.02%
CC(=O)N1CCCn2nc(-c3cccc(F)c3)cc2C1,-,6.627%

6 of the entries, repeated:

* N[C@H]1C[C@@H](c2cc(NCCCN3CCCC3)ncn2)C1 | Mtb glucose medium: -2.536%
* CC(C(=O)Nc1ccc(Br)cc1)n1cnnn1 (stereo not drawn) | Mtb glucose medium: 72.61%; Mtb cholesterol medium: 78.13%
* Cc1cc(C(=O)NCCC(=O)N2CCCC2)c(C)o1 | Mtb glucose medium: 3.281%
* COC(=O)c1ccc(C(=O)Nc2ncccc2O)s1 | Mtb glucose medium: 40.51%
* CCCNc1nnc(SCC(C)(C)O)s1 | Mtb glucose medium: 69.66%; Mtb cholesterol medium: 75.39%
* CC(C)NC(=O)NCC12CCCC=C1NC(=O)CC2 (stereo not drawn) | Mtb glucose medium: -7.496%

Data taken from ChEMBL document CHEMBL3988442, “University of Dundee, Small-Polar-MMV Screening Library” (2021).